Measured values from several laboratories, pooled; numbers as filed in NIAID ChemDB.

Shared fields: whole-cell or culture tests; organism: Mycobacterium tuberculosis

MIC50, MIC90 and the like: level of inhibition, or share of isolates inhibited. Fold resistance has wild type as its base. MIC bound: limit read from a one-dose screen. ECn is the concentration giving n% inhibition of infection, replication or growth. Inhibition is in % at the dose shown (toxicity tests: loss of growth or viability). Rows are shuffled and stem from different studies. Blank or dashed fields: not listed here.

structure	conditions	cell line	method	strain	mutations	endpoint	dose	value
CCOC(=O)c1ccc2c(c1)nc(-c1ccc(N(C)C)cc1)n2CCN1CCCC1=O			resazurin / fluorescence	H37Rv		MIC		>100 µM
CCCCCCCCN1C(=O)c2cc(Cl)nnc2Oc2ccc3ccccc3c21			BACTEC	H37Rv		EC50		>12.5 µg/mL
COc1ccc(CNCCNC[C@@H]2CC[C@H]3C[C@@H]2C3(C)C)cc1OC						MIC		50 µM
CN1C(=O)c2ccccc2N(C)C(=O)c2ccccc21			BACTEC	H37Rv		MIC bound		>12.5 µg/mL
O=C(O)c1cn(C2CC2)c2cc(N3CCN(C/C(=N/O)c4ccc(Br)cc4)CC3)c(F)cc2c1=O				H37Rv		MIC		>6.25 µg/mL
N[C@@H]1CONC1=O				H37Rv		Mean MIC		15.6 µg/mL
CCOCCCNCCNC[C@]1(C)CCC[C@]2(C)c3ccc(C(C)C)cc3CC[C@@H]12						MIC		25 µM
COC(=O)C1=C2Nc3ccccc3C23CCN2C(O)C4(C[C@@H]5C[C@]67CCO[C@H]6CCN6CCC8(c9cccc(OC)c9N(C4)[C@@]58O)[C@@H]67)[C@@H]4OCCC4(C1)[C@H]23			BACTEC	H37Rv		MIC bound		>12.5 µg/mL
CC(=O)Nc1ccc(OCC(=O)NN2C(=O)C(C)SC2c2ccccc2Cl)cc1				H37Rv		inhibition	12.5 µg/mL	0%
CCCCCN1C(=O)c2cc(Cl)nnc2Oc2ccc(C)cc21			BACTEC	H37Rv		inhibition	12.5 µg/mL	27%
CCn1cc(C(=O)O)c(=O)c2cc(F)c(N3CCN(CC(=O)c4ccc(C)cc4)CC3)cc21				H37Rv		EC50		>6.25 µg/mL
NNC(=O)c1ccncc1				50194		MIC		≥0.2 µg/mL
CCOC(=O)c1ccc2nc(-c3ccc(OC(F)(F)F)cc3)[nH]c2c1			resazurin / fluorescence	H37Rv		EC90		>100 µM
CCn1cc(C(=O)O)c(=O)c2cc(F)c(N3CCN(CC(=O)c4ccccc4)CC3)nc21				H37Rv		MIC		>6.25 µg/mL
CC1COc2c(N3CCN(C(N)=NC#N)CC3)c(F)cc3c(=O)c(C(=O)O)cn1c23			broth dilution	ATCC 35830		MIC		0.312 µg/mL
CC(=O)Nc1ccc(OCC(=O)NN2C(=O)C(C)SC2c2ccccc2[N+](=O)[O-])cc1				H37Rv		inhibition	12.5 µg/mL	27%
CN(C)c1ccc(O)c2c1C[C@H]1C[C@H]3[C@H](N(C)C)C(=O)C(C(N)=O)=C(O)[C@@]3(O)C(=O)C1=C2O				H37Rv		Mean MIC		5 µg/mL
O=C(N/N=C/c1ccccc1)c1ccccc1Nc1ccccc1C(=O)N/N=C/c1ccccc1			BACTEC	H37Rv		MIC bound		>12.5 µg/mL
CC1COc2c(N3CCN(C)CC3)c(F)cc3c(=O)c(C(=O)O)cn1c23			agar	08-685		MIC		1 µg/mL
CCOc1cc(/C=C2/SC(=O)N(CC)C2=O)ccc1O			BACTEC	H37Rv		MIC bound		>12.5 µg/mL
CC(=O)Nc1ccc(OCC(=O)NN2C(=O)C(C)SC2c2ccco2)cc1				H37Rv		EC50		>12.5 µg/mL
NCC[C@H](O)C(=O)N[C@@H]1C[C@H](N)[C@@H](O[C@H]2O[C@H](CN)[C@@H](O)[C@H](O)[C@H]2O)[C@H](O)[C@H]1O[C@H]1O[C@H](CO)[C@@H](O)[C@H](N)[C@H]1O			resazurin / fluorescence	H37Rv		MIC		>100 µM
CO[C@H]1/C=C/O[C@@]2(C)Oc3c(C)c(O)c4c(O)c(c(/C=N/N5CCN(C6CCCC6)CC5)c(O)c4c3C2=O)NC(=O)/C(C)=C\C=C\[C@H](C)[C@H](O)[C@@H](C)[C@@H](O)[C@@H](C)[C@H](OC(C)=O)[C@@H]1C				H37Rv		Mean MIC		0.006 µg/mL
CCc1nc2ccc(C)cc2n1CCCCSc1ccc(OC)cc1			turbidity / fluorescence	H37Rv		MIC99		2.3 µM
CN[C@@H]1[C@H](O[C@H]2[C@H](O[C@H]3[C@H](O)[C@@H](O)[C@H](N=C(N)N)[C@@H](O)[C@@H]3N=C(N)N)O[C@@H](C)[C@]2(O)C=O)O[C@@H](CO)[C@H](O)[C@H]1O			resazurin	Beijing (E-47/94)	Drug-resistant	MIC		0.5 µM
O=C(Nc1ncc([N+](=O)[O-])s1)c1cc(Cl)cc(Cl)c1			BACTEC	H37Rv		MIC bound		≤12.5 µg/mL
CC(=O)Nc1ccc(/C=N/NC(N)=S)cc1				Isolate C drug-resistant		MBC		50 µg/mL
CO[C@H]1/C=C/O[C@@]2(C)Oc3c(C)c(O)c4c(O)c(c(/C=N/N5CCN(C6CCCC6)CC5)c(O)c4c3C2=O)NC(=O)/C(C)=C\C=C\[C@H](C)[C@H](O)[C@@H](C)[C@@H](O)[C@@H](C)[C@H](OC(C)=O)[C@@H]1C				H37Rv (isoniazid-resistant)		MIC		5 µg/mL
CCc1nc2ccc(C)cc2n1CCCCOc1ccccc1			turbidity / fluorescence	H37Rv	Rv1339 V90M	MIC90		1.7 µM
CO[C@H]1/C=C/O[C@@]2(C)Oc3c(C)c(O)c4c(=O)c(c5oc6cc(N7CCN(CC(C)C)CC7)cc(=O)c6nc5c4c3=C2O)NC(=O)/C(C)=C\C=C\[C@H](C)[C@H](O)[C@@H](C)[C@@H](O)[C@@H](C)[C@H](OC(C)=O)[C@@H]1C				33 (rifampin-resistant)		MIC		0.05 µg/mL
CN(C(=O)c1ccccc1)[C@H]1CCCC(=O)CC1			BACTEC	H37Rv		MIC bound		>12.5 µg/mL
COc1ccc(-n2cc(CNC3c4ccccc4-c4ccccc43)nn2)cc1			broth dilution	H37Rv		MIC99		136 µM
Cc1ccc(C(=O)N/N=C/c2ccc(N(C)C)cc2Cl)cc1			BACTEC	H37Rv		MIC bound		>12.5 µg/mL
CO[C@H]1/C=C/O[C@@]2(C)Oc3c(C)c(O)c4c(O)c(c5c(c4c3C2=O)NC2(CCN(CC(C)C)CC2)N=5)=NC(=O)/C(C)=C\C=C\[C@H](C)[C@H](O)[C@@H](C)[C@@H](O)[C@@H](C)[C@H](OC(C)=O)[C@@H]1C				2227 (rifampin-resistant)		MBC		0.2 µg/mL
CCc1nc2ccc(C)cc2n1CCCNc1ccc(OC)cc1			turbidity / fluorescence	H37Rv		MIC99		0.35 µM
CCOC(=O)c1ccc2c(c1)nc(-c1ccccc1)n2CCN1CCCC1=O			resazurin / fluorescence	H37Rv		MIC		100 µM
CN[C@@H]1[C@H](O[C@H]2[C@H](O[C@H]3[C@H](O)[C@@H](O)[C@H](N=C(N)N)[C@@H](O)[C@@H]3N=C(N)N)O[C@@H](C)[C@]2(O)C=O)O[C@@H](CO)[C@H](O)[C@H]1O				9135		MIC		≥2 µg/mL
CC(=O)O[C@H]1C[C@@]2(C)[C@@H](C[C@@H](O)[C@H]3[C@@]4(C)CC[C@@H](O)[C@@H](C)[C@@H]4CC[C@@]32C)/C1=C(\CCC=C(C)C)C(=O)O				H37Ra		Median MIC		4 µg/mL
C1=C(c2nc(-c3cccnc3)no2)c2ccccc2C12CCN(CC1CCCO1)CC2			resazurin	18b+	Drug-resistant	MIC		0.78 µM
Fc1ccc(-n2cc(CNC3c4ccccc4-c4ccccc43)nn2)cc1Cl			broth dilution	Specimen 192		MIC99		>256 µM
CC[C@@H](CO)NCCN[C@@H](CC)CO			resazurin	18b+	Drug-resistant	MIC		1.2 µM
CO[C@H]1/C=C/O[C@@]2(C)Oc3c(C)c(O)c4c(O)c(c(/C=N/N5CCN(C/C=C/c6ccccc6)CC5)c(O)c4c3C2=O)NC(=O)/C(C)=C\C=C\[C@H](C)[C@H](O)[C@@H](C)[C@@H](O)[C@@H](C)[C@H](OC(C)=O)[C@@H]1C				MTB33 (RIF-R)		MIC		1 µg/mL
CCCCC(CC)CN1CN(CC(CC)CCCC)CC(C)(NCCNCCc2ccccc2Cl)C1						MIC		12.5 µM
CCCCCN1C(=O)c2cc(Cl)nnc2Oc2ccc3ccccc3c21			BACTEC	H37Rv		inhibition	12.5 µg/mL	54%
O=[N+]([O-])c1ccccc1-n1cc(CNC2c3ccccc3-c3ccccc32)nn1			broth dilution	Specimen 192		MIC99		>261 µM
O=C(c1ccc(Br)cc1)c1cnc2nc(-c3ccccc3)c(-c3ccccc3)nn12			BACTEC	H37Rv		inhibition	12.5 µg/mL	99%
CCOC(=O)c1ccc2c(c1)nc(-c1ccc(OC(F)(F)F)cc1)n2CCN1CCCC1=O			resazurin / fluorescence	H37Rv		EC50		>100 µM
O=C1Nc2ccccc2C12CCN(Cc1ccccc1)CC2			resazurin	H37Rv		MIC		>100 µM
CCCCCN1C(=O)c2ccnnc2Oc2ccccc21			BACTEC	H37Rv		EC50		>12.5 µg/mL
CCOC(=O)C1=C(O)C(=O)N(Cc2ccccc2)C1			resazurin	H37Rv		inhibition	6.25 µg/mL	4%
CCn1cc(C(=O)O)c(=O)c2cc(F)c(N3CCN(C/C(=N/O)c4ccc(OC)cc4)CC3)cc21				H37Rv		EC50		>6.25 µg/mL
COc1ccc(-c2noc(C3=CC4(CCN(CC5CCCO5)CC4)c4ccccc43)n2)cc1			resazurin	136570	Streptomycin-resistant	MIC		0.78 µM
OCc1ccccc1Sc1ccccc1CNCCNCc1ccc2c(c1)OCO2						MIC		50 µM
CC1(C)OC2C3OC(C)(C)OC3C3OC(C)(C)OC3C2O1			BACTEC	H37Rv		inhibition	12.5 µg/mL	0%
CCc1nc2ccc(C)cc2n1CCCSc1ccc(OC)cc1			turbidity / fluorescence	H37Rv	QcrB M342T	fold resistance		21
COc1ccc(/C=N/NC(=O)COc2ccc(NC(C)=O)cc2)cc1				H37Rv		inhibition	12.5 µg/mL	25%
CCn1cc(C(=O)O)c(=O)c2cc(F)c(N3CCN(CC(=O)c4ccc(Br)cc4)CC3)nc21				H37Rv		inhibition	6.25 µg/mL	1%
CN1C(=O)Cn2c(n[nH]c(=O)c2=O)-c2cc(Cl)ccc21			BACTEC	H37Rv		MIC bound		>12.5 µg/mL
NCC[C@H](O)C(=O)N[C@@H]1C[C@H](N)[C@@H](O[C@H]2O[C@H](CN)[C@@H](O)[C@H](O)[C@H]2O)[C@H](O)[C@H]1O[C@H]1O[C@H](CO)[C@@H](O)[C@H](N)[C@H]1O				H37Ra		Median MIC		0.7 µg/mL
NC(=S)SC1=NNC2(C(=O)N1)c1ccccc1-c1ccccc12			BACTEC	H37Rv		MIC bound		≤128 µg/mL
Fc1ccc(-n2cc(CSC3c4ccccc4-c4ccccc43)nn2)cc1			broth dilution	Specimen 192		MIC99		66.94 µM
CC(=O)NS(=O)(=O)c1ccc(N=Nc2c(O)n(-c3ccccc3)n(-c3ccccc3)c2=O)cc1			BACTEC	H37Rv		inhibition	12.8 µg/mL	19%
CCOC(=O)c1ccc2c(c1)nc(-c1cccc(-c3ccc(F)cc3)c1)n2CCN1CCCOC1			resazurin / fluorescence	H37Rv		EC50		>100 µM
O=C(N/N=C/c1ccccc1S(=O)(=O)[O-])C(=O)N/N=C/c1ccccc1S(=O)(=O)[O-].[Na+].[Na+]			BACTEC	H37Rv		MIC bound		>12.5 µg/mL
CCOC(=O)c1ccc2nc(-c3ccccc3)[nH]c2c1			resazurin / fluorescence	H37Rv		EC50		>100 µM
CCCCCCCC(=O)N1[C@H]2[C@@H]1CN1C3=C(C(=O)C(N)=C(C)C3=O)[C@@H](COC(N)=O)[C@@]21OC				EMB-R		MIC		0.4 µg/mL
NC(=O)c1cnccn1	7 d			TB189		inhibition	800 µg/mL	99.9%
Cc1ncc([N+](=O)[O-])n1CCSC(N)=O			resazurin	H37Rv		MIC bound		>6.25 µg/mL
CC(C)(C)c1ccc(CN2CCC3(CC2)C(=O)N(CC2CC2)c2ccccc23)cc1			turbidity	TB333	Spiroindene-resistant	MIC		0.4 µM
COc1ccc(CC(N=Cc2ccc(O)cc2)C(=O)N[C@H]2[C@@H](O)[C@H](n3cnc4c(N(C)C)ncnc43)O[C@@H]2CO)cc1		VERO		H37Rv		MIC		1.56 µg/mL
CCOC(=O)c1ccc2nc(-c3ccc(C(=O)O)cc3)[nH]c2c1			resazurin / fluorescence	H37Rv		EC50		>100 µM
Cc1ccc(/C=N/NC(=O)c2ccncc2)cc1			resazurin	H37Rv		inhibition	6.25 µg/mL	97%
CC[C@H]1OC(=O)[C@H](C)[C@@H](O[C@H]2C[C@@](C)(OC)[C@@H](O)[C@H](C)O2)[C@H](C)[C@@H](O[C@@H]2O[C@H](C)C[C@H](N(C)C)[C@H]2O)[C@](C)(OC)C[C@@H](C)C(=O)[C@H](C)[C@@H](O)[C@]1(C)O				H37Rv		Mean MIC		8 µg/mL
COc1cccc2c1N=c1c(Cl)c3c(c(Cl)c1O2)=Nc1c(OC)cccc1O3			BACTEC	H37Rv		MIC		≥12.5 µg/mL
CCc1nc2ccc(C)cc2n1CCCNc1ccc(Br)c(C)c1			turbidity / fluorescence	H37Rv	Rv1339 V90M	fold resistance		0.9
O=c1[nH]c2ncccc2c(=O)n1OS(=O)(=O)c1ccccc1			resazurin	H37Rv		inhibition	6.25 µg/mL	27%
CCc1nc2ccccc2n1CCCCOc1cccc(C)c1			turbidity / fluorescence	H37Rv	Rv1339 V90M	MIC90		6.2 µM

A second listing of 7 rows from above:

structure,conditions,cell line,method,strain,mutations,endpoint,dose,value
COc1ccc(/C=N/NC(=O)COc2ccc(NC(C)=O)cc2)cc1,,,,H37Rv,,inhibition,12.5 µg/mL,25%
CCOCCCNCCNC[C@]1(C)CCC[C@]2(C)c3ccc(C(C)C)cc3CC[C@@H]12,,,,,,MIC,,25 µM
CC(=O)Nc1ccc(OCC(=O)NN2C(=O)C(C)SC2c2ccco2)cc1,,,,H37Rv,,EC50,,>12.5 µg/mL
CCCCCN1C(=O)c2cc(Cl)nnc2Oc2ccc3ccccc3c21,,,BACTEC,H37Rv,,inhibition,12.5 µg/mL,54%
CCCCCN1C(=O)c2ccnnc2Oc2ccccc21,,,BACTEC,H37Rv,,EC50,,>12.5 µg/mL
CCc1nc2ccc(C)cc2n1CCCNc1ccc(Br)c(C)c1,,,turbidity / fluorescence,H37Rv,Rv1339 V90M,fold resistance,,0.9
CC1(C)OC2C3OC(C)(C)OC3C3OC(C)(C)OC3C2O1,,,BACTEC,H37Rv,,inhibition,12.5 µg/mL,0%